Like-named read-outs stand apart in the source and are kept apart here.
Tests used:
[1] = target: Cap-dependant Endonuclease (CEN) (RNP fraction, PB1-PB2-PA complex) (Influenza A virus (strain A/Wilson-Smith/1933 H1N1) (Influenza A virus (strain A/WS/1933 H1N1)), UniProt P15659); type: biochemical, influenza A/WSN/33 virus
[2] = test system: influenza virus; assay: microbe, parasite or virus in culture; type: cell-based; conditions: MDBK or MDCK cells, 3 days, WST-8
[3] = parent compounds (Reference examples), room temperature, 60 minutes
[4] = read-out: CPE EC50, parent compounds (Reference examples)

| SMILES | IC50 [1, 3] | IC50 [1] | further results |
| --- | --- | --- | --- |
| C[C@@H](N1CN([C@H]2c3ccccc3CCc3c(Cl)cccc32)n2ccc(=O)c(O)c2C1=O)C(F)(F)F [Reference example 639] | 55 nM | – | – |
| C[C@@H](N1CN([C@@H]2c3ccccc3CSc3ccccc32)n2ccc(=O)c(O)c2C1=O)C(F)(F)F [Reference example 414] | – | 1890 nM | – |
| C[C@@H](N1CN([C@H]2c3ccccc3CSc3c(C#N)cccc32)n2ccc(=O)c(O)c2C1=O)C(F)(F)F [Reference example 618] | 29 nM | – | – |
| Cc1cccc2c1SCc1cccc(C)c1[C@@H]2N1CN([C@H](C)C(F)(F)F)C(=O)c2c(O)c(=O)ccn21 [compound 720] | 19.1 nM | – | EC50 ([2]; unidentified influenza virus, 72 h, read-out: CPE EC50, parent compounds (Reference examples)): 6.24 nM |
| Cc1cccc2c1SCc1cccc(C)c1[C@@H]2N1CN([C@H](C)C(F)(F)F)C(=O)c2c(O)c(=O)ccn21 [compound 722] | 19.2 nM | – | EC50 [2, 4]: 3.78 nM |
| C[C@@H](N1CN([C@H]2c3cccc(C(F)(F)F)c3CSc3c(F)cccc32)n2ccc(=O)c(O)c2C1=O)C(F)(F)F [Reference example 660] | 36 nM | – | – |
| Cc1cccc2c1CSc1c(Cl)cccc1[C@H]2N1CN([C@H](C)C(F)(F)F)C(=O)c2c(O)c(=O)ccn21 [Reference example 612] | 55 nM | – | – |
| O=C1c2c(O)c(=O)ccn2N([C@H]2c3ccccc3CSc3c(F)cccc32)CN1[C@H](CO)C(F)(F)F [Reference example 611] | – | 55 nM | – |
| O=C1c2c(O)c(=O)ccn2N(C2c3ccccc3CCc3ccccc32)CN1Cc1ncns1 [Reference example 271] | 73 nM | – | – |
| Cc1cccc2c1SCc1cccc(C)c1[C@@H]2N1CN([C@H](C)C(F)(F)F)C(=O)c2c(O)c(=O)ccn21 [compound 721] | – | 6.96 nM | EC50 [2, 4]: 3.95 nM |

Source: patent US10202379B2, “Substituted polycyclic carbamoyl pyridone derivative prodrug” (priority 2010, dated 2019)
